Compound potency records, mixed from different reports. Data source: NIAID ChemDB in PubChem.

Common to all: tests in culture

Inhibition is in % at the dose shown (toxicity tests: loss of growth or viability).

structure | organism | strain or isolate | cell line | read by | setting | read-out | tested at | result
CCO/C(=N/NC(=O)OC(C)(C)C)C(O)c1ccc(Cl)c(Cl)c1 | Plasmodium falciparum | 3D7 | - | hypoxanthine uptake / radiometric | - | inhibition | 5 µM | 12%
CCN(CC)CCn1ccc(=Nc2ccc(-c3ccccc3)cc2)c2ccc(Cl)cc21 | Plasmodium berghei | - | Huh7 | luciferase | - | EC50 | - | >1 µM
CC[C@H]1OC(=O)[C@H](C)[C@@H](OC2C[C@@](C)(OC)[C@@H](O)[C@H](C)O2)[C@H](C)[C@@H](OC2O[C@H](C)C[C@H](N(C)C)[C@H]2O)[C@](C)(OC2C[C@@H](N(C)C)[C@@H](O)[C@H](C)O2)C[C@@H](C)C(=O)[C@H](C)[C@@H](O)[C@]1(C)O | Plasmodium falciparum | W2 Mef | RBC | fluorescence | 120 h | EC50 | - | 0.72 µM
NC1=Nc2ccc(Cl)cc2C1(O)c1ccccc1 | Plasmodium spp. | PK H1 | - | fluorescence | - | EC50 | - | 336 nM
FC(F)(F)c1ccc2c(=Nc3ccc(-c4ccccc4)cc3)ccn(CCN3CCCC3)c2c1 | Plasmodium berghei | - | Huh7 | luciferase | - | EC50 | - | >1 µM
CCCCN1C(=O)c2ccccc2NC1c1ccc(OC)c(COc2ccc(F)cc2)c1 | Plasmodium berghei | ANKA | - | luciferase | - | EC50 | - | 7.8 µM
CCN(CC)CCCC(C)Nc1ccnc2cc(Cl)ccc12 | Plasmodium falciparum | Dd2 | - | - | 72 h | inhibition | 0.031 µg/mL | 60%
CN1CCC(N(C)C(=O)c2c[n+]3c(cn2)CN=C3c2ccc(C(F)(F)F)cc2)CC1 | Plasmodium yoelii | - | - | SYBR Green | - | EC50 | - | >10 µM
CCOC(=O)N/N=C(/OCC)C(C)(O)c1ccc(F)c(Br)c1 | Plasmodium falciparum | 3D7 | - | hypoxanthine uptake / radiometric | - | inhibition | 5 µM | 70%
CCN(CC)CCN1C(=O)c2ccccc2NC1c1ccc(F)cc1 | Plasmodium berghei | ANKA | - | luciferase | - | EC50 | - | 8 µM
FC(F)(F)c1ccc2c(c1)c(=Nc1ccc(-c3ccccc3)cc1)ccn2CCCN1CCCCC1 | Plasmodium berghei | - | Huh7 | luciferase | - | EC50 | - | >1 µM
CCO/C(=N/NC(=O)OC)C(C)(O)c1ccc(C)c(C)c1 | Plasmodium falciparum | 3D7 | - | hypoxanthine uptake / radiometric | - | inhibition | 5 µM | 19%
CCN(CC)CCCn1ccc(=Nc2ccc(-c3ccccc3)cc2)c2ccc(Cl)cc21 | Plasmodium berghei | - | Huh7 | luciferase | - | EC50 | - | >1 µM
CCN(CC)CCN1C(=O)c2ccccc2NC1c1ccc(N(C)C)cc1 | Plasmodium berghei | ANKA | - | luciferase | - | EC50 | - | 1 µM
CCO/C(Cc1ccc(Cl)c(Cl)c1)=N/NC(=O)OC(C)(C)C | Plasmodium falciparum | 3D7 | - | hypoxanthine uptake / radiometric | - | inhibition | 5 µM | 5%
CC(C)(C)c1cc(C(=O)Nc2nc(CN)cs2)n(Cc2ccccc2)n1 | Plasmodium berghei | NF54 | - | - | - | EC50 | - | 0.07 µM
CCO/C(=N/NC(=O)NOCc1ccccc1)C(C)(O)c1ccc2ccccc2c1 | Plasmodium falciparum | 3D7 | - | hypoxanthine uptake / radiometric | - | inhibition | 5 µM | 14%
CCN(CC)CCN1C(=O)c2ccccc2NC1c1ccc(Cl)cc1 | Plasmodium berghei | ANKA | - | luciferase | - | EC50 | - | 4.1 µM
CCO/C(=N/NC(=O)OC(C)(C)C)C(C)(O)c1ccc(Cl)c(Cl)c1 | Plasmodium falciparum | 3D7 | - | hypoxanthine uptake / radiometric | - | inhibition | 5 µM | 75%
CC[C@H]1OC(=O)[C@H](C)[C@@H](OC2C[C@@](C)(OC)[C@@H](O)[C@H](C)O2)[C@H](C)[C@@H](OC2O[C@H](C)C[C@H](N(C)C)[C@H]2O)[C@](C)(OC2C[C@@H](O)[C@H](O)[C@H](C)O2)C[C@@H](C)C(=O)[C@H](C)[C@@H](O)[C@]1(C)O | Plasmodium falciparum | W2 Mef | RBC | fluorescence | 120 h | EC50 | - | 5.1 µM
CN[C@@H](CC1=CN=c2c(O)c3c(c(O)c21)=NC=CS3(=O)=O)C(=O)O | Plasmodium falciparum | Dd2 | - | - | - | MIC | - | 0.159 µM
CCO/C(=N/NC(=O)OC(C)(C)C)C(O)c1cccc2ccccc12 | Plasmodium falciparum | 3D7 | - | hypoxanthine uptake / radiometric | - | inhibition | 5 µM | 7%

The last 2 rows once more:

structure,organism,strain or isolate,cell line,read by,setting,read-out,tested at,result
CN[C@@H](CC1=CN=c2c(O)c3c(c(O)c21)=NC=CS3(=O)=O)C(=O)O,Plasmodium falciparum,Dd2,-,-,-,MIC,-,0.159 µM
CCO/C(=N/NC(=O)OC(C)(C)C)C(O)c1cccc2ccccc12,Plasmodium falciparum,3D7,-,hypoxanthine uptake / radiometric,-,inhibition,5 µM,7%

ECn is the concentration giving n% inhibition of infection, replication or growth. Blank or dashed fields: not listed here. Lines come from different laboratories, so protocols vary.